Results of unrelated studies side by side (data: NIAID ChemDB).

Common to all: tests in culture; organism: HIV-1; cell line: PBMC; measure: EC50

Conditions beyond the fields shown may differ between rows. An empty or dashed field is not shown. ECn is the concentration giving n% inhibition of infection, replication or growth. Two numbers with a dash give a range or band.

smiles	strain	changes	read by	result
CCOCn1c(Cc2ccccc2)c(C(C)C)c(=O)[nH]c1=O	CC2		p24	0.01 µM
OCCC#Cc1nc(-c2ccc(F)cc2)c(-c2ccncc2)n1CCCc1ccccc1	BaL		p24	<1 µM
O=c1[nH]cnc2c1ncn2[C@H]1CC[C@@](F)(CO)C1				>100 µM
Cc1cccc(Cn2c(=O)ccn(CC#N)c2=O)c1	IIIB		cytopathic effect	6.7 µM
Clc1cc(CN2CCCNCCNCCCNCC2)cc(Cl)n1	R5 clinical isolate #15		p24	5.7 µM
OCCNc1nc(-c2cccs2)cc(-c2cccs2)n1	LAV		RT activity	55.2 µM
O=[N+]([O-])c1ccc(O)c(-c2nc3c4ccccc4c4ccccc4c3[nH]2)c1	89BZ167		RT activity	7.1 µM
O=C(O)CCCCCNC1c2ccc3cc4c5c6c(cc7ccc8cc9cc1c1c9c9c8c7c6c9c6c1c2c3c56)C4			p24	0.49 µM
CN(C)CCNc1nc(-c2cccs2)cc(-c2cc3ccccc3s2)n1	LAV-1		RT activity	5.8 µM
Cc1nc2ccccc2c(-c2ccc(Cl)cc2)c1[C@H](OC(C)(C)C)C(=O)O				0.287 µM
C=C1CN(S(=O)(=O)c2ccc(C)cc2)CCCN(Cc2ccccc2)CCCN(S(=O)(=O)c2ccc(C)cc2)C1	IIIB		cytopathic effect	0.6 µM
CCCCCC(=O)Nc1nc(N)nc2c1ncn2[C@H]1CO[C@@H](COP(=O)(N[C@@H](C)C(=O)OCC)Oc2ccccc2)O1	LAV-1		RT activity	2.2 µM
Nc1nccc2c1ncn2[C@H]1CC[C@@H](CO)C1	A018		p24	2 µM
O=c1[nH]cnc2c1ncn2OCCOCP(=O)(O)O				10 µM
C#CCn1ccc(=O)n(Cc2cc(C)cc(C)c2)c1=O	IIIB		cytopathic effect	1.08 µM
Nc1nc(F)nc2c1ncn2[C@H]1S[C@@H](CO)C=C1F	LAI		cytopathic effect / MTT	11.5 µM
N#CCn1ccc(=O)n(Cc2cc(Cl)cc(Cl)c2)c1=O	IIIB		cytopathic effect	0.77 µM
NC(=NCCCCCCN=C(N)/N=C(\N)N1CCN(c2cc3c(cc2F)c(=O)c(C(=O)O)cn3C2CC2)CC1)/N=C(\N)N1CCN(c2cc3c(cc2F)c(=O)c(C(=O)O)cn3C2CC2)CC1	IIIB		XTT	2.5 µg/mL
O=c1[nH]c(=O)n([C@H]2O[C@@H](CO)[C@H](O)C2(F)F)cc1I	LAI		RT activity	>100 µM
CC(=O)N[C@H]1[C@@H](OP(=O)(O)OP(=O)(O)OC[C@H]2O[C@@H](n3ccc(=O)[nH]c3=O)C[C@@H]2N=[N+]=[N-])O[C@H](CO)[C@@H](O)[C@@H]1O	LAV		RT activity	0.57–2.09 µM
CN(C)CCNc1cc(-c2ccc3ccccc3c2)nc2ccccc12	LAV		p24	2.5 µM
Cc1cn([C@H]2C=C[C@@H](COC(=O)NCCc3ccc(Br)cc3)O2)c(=O)[nH]c1=O	IIIB		p24	49.5 µM
CN[C@@H]1[C@H](O[C@@H]2OC[C@@H](O)[C@H](O)[C@H]2O)[C@@H](O)[C@H](O[C@H]2c3cc(C)c(C(=O)N[C@H](C)C(=O)O)c(O)c3-c3c(cc4c(c3O)C(=O)c3cc(OC)cc(O)c3C4=O)[C@@H]2O)O[C@@H]1C	Clade D UG270 (R4-tropic)		p24 / ELISA	3.7 µM
CN(C)CCNc1nc(-c2cc3ccccc3s2)c2ccccc2n1	LAV		RT activity	1.7 µM
CN1CCN(c2nc(-c3ccccc3)nc3ccccc23)CC1	LAV		p24	28.5 µM
c1csc(-c2cc(-c3cccs3)nc(N3CCOCC3)n2)c1	LAV-1		RT activity	48.5 µM
Nc1nccc2c1ncn2[C@@H]1C[C@H](O)[C@@H](O)[C@H]1O	A018		p24	2.84 µM
Nc1ncnc2c1ncn2[C@@H]1CC[C@](F)(CO)C1				>100 µM
COC[C@@H](c1ccc(C(F)(F)F)cc1)N1CCN(C2(C)CCN(C(=O)c3c(C)ncnc3C)CC2)C[C@@H]1C	S	G514V		0.00013 µM
O=C(O)CCC(CCC(=O)O)(CCC(=O)O)NC(=O)CCC(CCC(=O)NC(CCC(=O)O)(CCC(=O)O)CCC(=O)O)(CCC(=O)NC(CCC(=O)O)(CCC(=O)O)CCC(=O)O)NC(=O)CCCOC(=O)C1(C(=O)OCCCC(=O)NC(CCC(=O)NC(CCC(=O)O)(CCC(=O)O)CCC(=O)O)(CCC(=O)NC(CCC(=O)O)(CCC(=O)O)CCC(=O)O)CCC(=O)NC(CCC(=O)O)(CCC(=O)O)CCC(=O)O)C2c3cc4c5c6c3-c3c(cc7c8c3C6C3c6c-5c(cc5ccc9cc(c-8c3c9c65)C7)C4)C21	LAI		cytopathic effect	0.22 µM
O=c1[nH]c(=O)n([C@H]2O[C@@H](CO)[C@H](O)C2(F)F)cc1Cl	LAI		RT activity	>100 µM
C[C@]1(CO)CO[C@@H](n2cnc3c(=O)[nH]c(F)nc32)C1	LAV		RT activity	0.073 µM
CN1CCN(CCSc2nccc(-c3ccc(-c4cccs4)s3)n2)CC1	LAV		RT activity	12.9 µM
O=c1[nH]cnc2c1ncn2[C@@H]1O[C@@H](CO)[C@H](O)C1(F)F	LAI		RT activity	>100 µM
Cc1cn([C@@H]2CC[C@H](COC(=O)CCCCCCCCC(=O)OC[C@H]3O[C@@H](n4cc(C)c(=O)[nH]c4=O)C[C@@H]3F)O2)c(=O)[nH]c1=O				0.001 µM
C[C@H]1[C@H](O)[C@@H](C)/C=C/C=C/C=C/C=C/C=C/C=C/C=C/[C@H](O[C@@H]2O[C@H](C)[C@@H](O)[C@H](N)[C@@H]2O)C[C@@H]2O[C@](O)(C[C@@H](O)C[C@@H](O)CC[C@H](O)[C@@H](O)C[C@@H](O)CC(=O)O[C@H]1C)C[C@H](O)[C@H]2C(=O)O	92UG029 CLADE A X4 (SI)		p24 / RT activity	1.5 µM
Nc1nc(=O)n([C@@H]2O[C@@H](CO)[C@H](O)C2(F)F)cc1Cl	LAI		RT activity	>100 µM
Cc1c(-c2cccc(SCCN(C)C)c2)ncnc1-c1cccc(SCCN(C)C)c1	LAV-1		RT activity	6 µM
CCCCCCCCCCCCCC(=O)Nc1nc(N)nc2c1ncn2[C@H]1CO[C@@H](COP(=O)(N[C@@H](C)C(=O)OCC)Oc2ccccc2)O1	LAV-1		RT activity	0.041 µM
Cc1ccc(Cn2c(=O)ccn(CC#N)c2=O)cc1	IIIB		cytopathic effect	94.8 µM
CC(=O)N1CCC(C(=O)N(CCCN2CCC(Cc3ccc(C(N)=O)cc3)CC2)c2ccc(C)c(Cl)c2)CC1	KK Clinical isolates		p24	0.0012 µM
CCCCCCCCCCCCCCCC(=O)Nc1nc(N)nc2c1ncn2[C@H]1CO[C@@H](COP(=O)(N[C@@H](C)C(=O)OCC)Oc2ccccc2)O1	LAV-1		RT activity	0.083 µM
Cc1cnc(SCCN(C)C)nc1-c1ccc(-c2nc(SCCN(C)C)ncc2C)s1	LAV-1		RT activity	2.1 µM
Cc1ccc(NC(=O)CN2CCN(Cc3nc(-c4ccc(F)cc4)no3)CC2)cc1			RT activity	15.6 µM
Cc1cc2ccccc2c(-c2ccc3c4c(ccnc24)CCO3)c1[C@H](OC(C)(C)C)C(=O)O	BaL		p24	0.015 µM
Cc1ccc(-c2cccc(-c3ccc(CNCCN(C)C)cc3)n2)cc1	LAV-1		RT activity	4 µM
O=C(O)CCN(CCN(CC(=O)O)Cc1cnc2c(O)cccc2c1)CC(=O)O	B-92US026 Primary isolate		RT activity	15 µM
Cc1ccc(C2=CC(c3ccccc3)=C(c3ccccc3)C2)cc1	89BZ167		RT activity	>100 µM
Nc1ncnc2c1ncn2OCC(CO)OCP(=O)(O)O				0.63 µM
CN(C)CCNc1nc(-c2cccc(SCCN(C)C)c2)cc(-c2cccs2)n1	LAV-1		RT activity	1.3 µM
Nc1ccn([C@@H]2C=C[C@H](CO)C2)c(=O)n1				35.8 µM
Nc1nccc2c1ncn2[C@H]1CC[C@@H](CO)O1	A012		p24	4.8 µM
Nc1nc2c(ncn2OCC(CO)OCP(=O)(O)O)c(=O)[nH]1				0.06 µM
CN(C)CCNc1cc(-c2ccccn2)nc2ccccc12	LAV		p24	1.4 µM
COC(=O)c1cc2c(c(OC)c1-c1ccc(N(C)C)cc1)OCO2	KM018		p24 / ELISA	2.32 µg/mL
Oc1ccc(-c2nc(-c3ccc(Cl)cc3)c(-c3ccc(Cl)cc3)[nH]2)cc1	89BZ167		RT activity	13.3 µM
Cc1cc(C)c(S(=O)(=O)OCC2OC3OC4C(CO)OC(OC5C(CO)OC(OC6C(CO)OC(OC7C(CO)OC(OC8C(CO)OC(OC9C(C[n+]%10ccccc%10)OC(OC2C(O)C3O)C(O)C9O)C(O)C8O)C(O)C7O)C(O)C6O)C(O)C5O)C(O)C4O)c(C)c1	KK-1(AIDS)			382 µg/mL
CCCCCCCC/C=C\CCCCC(CCC(=O)O)NC1c2ccc3cc4c5c6c(cc7ccc8cc9cc1c1c9c9c8c7c6c9c6c1c2c3c56)C4			p24	10 µM
CC(C)c1c(Cc2ccccc2)n(COCc2ccccc2)c(=O)[nH]c1=O	SF33		p24 / ELISA	<0.0024 µM
CN(C)CCNc1nc(-c2cccs2)cc(-c2cccs2)n1	LAV		RT activity	0.5 µM
COc1cc(/C=C/C(=O)CC(=O)/C=C/c2ccc(O)c(OC)c2)ccc1O	IIIB			5 µM
COc1ccccc1CCNC(=O)OC[C@@H]1C=C[C@H](n2cc(C)c(=O)[nH]c2=O)O1	IIIB		p24	11.2 µM
Nc1nccc2c1ncn2[C@@H]1O[C@H](CO)[C@@H](O)[C@H]1O	A012		p24	0.15 µM
CN1CCN(c2nc(-c3cccs3)cc(-c3cccs3)n2)CC1	LAV		RT activity	21.1 µM
N=C1Sc2ccccc2C2=NCCCN12	96USNG31		β-galactosidase	0.14 µM
CN1CCN(c2cc(-c3ccccc3)nc3ccccc23)CC1	LAV		p24	34.8 µM
CCn1cc(C(=O)O)c(=O)c2cc(F)c(N3CCN(c4ccccc4OC)CC3)c(OC(F)F)c21	BaL		p24	~0.6 µM
Cc1cn([C@H]2O[C@@H](CO)[C@H](O)C2(F)F)c(=O)[nH]c1=O	LAI		RT activity	>100 µM
NCC(NC(=O)c1ccc(-c2ccc(C(F)(F)F)c(F)c2)[nH]1)c1nc(CO)cs1	NL4-3		p24 / ELISA	0.38 µM
Cn1cc(C(=O)O)c(=O)c2cc(F)c(N3CC=C(c4ccccc4)CC3)c(C(F)(F)F)c21	BaL		p24	~0.108 µM
O=c1[nH]c(=O)n([C@H]2CC[C@@](F)(CO)C2)cc1F				>100 µM
CN(C)c1ccc(Nc2c3ccc(NC(=O)CCN4CCCC4)cc3nc3cc(NC(=O)CCN4CCCC4)ccc23)cc1	IIIB		p24 / antigen	28.3 µM
Cc1cn([C@H]2C=C[C@@H](COC(=O)NCCc3ccccc3F)O2)c(=O)[nH]c1=O	IIIB		p24	25.4 µM
COc1cc(Cn2c(=O)ccn(CC#N)c2=O)cc(OC)c1	IIIB		cytopathic effect	5.64 µM
COc1ccc(OC)c(CCNC(=O)OC[C@@H]2C=C[C@H](n3cc(C)c(=O)[nH]c3=O)O2)c1	IIIB		p24	>100 µM
CN1CCN(CCSCc2ccc(-c3cccc(-c4ccc(CSCCN5CCN(C)CC5)cc4)n3)cc2)CC1	LAV-1		RT activity	5.9 µM
CCCCCCCCCC(=O)Nc1nc(N)nc2c1ncn2[C@H]1CO[C@@H](COP(=O)(N[C@@H](C)C(=O)OCC)Oc2ccccc2)O1	LAV-1		RT activity	1.5 µM
Cc1cnc(SCCN2CCN(C)CC2)nc1-c1cc2ccccc2s1	LAV		RT activity	6.5 µM

A second listing of 11 rows from above:

smiles | strain | changes | read by | result
CCCCCCCCCCCCCCCC(=O)Nc1nc(N)nc2c1ncn2[C@H]1CO[C@@H](COP(=O)(N[C@@H](C)C(=O)OCC)Oc2ccccc2)O1 | LAV-1 |  | RT activity | 0.083 µM
O=c1[nH]c(=O)n([C@H]2CC[C@@](F)(CO)C2)cc1F |  |  |  | >100 µM
Cc1ccc(NC(=O)CN2CCN(Cc3nc(-c4ccc(F)cc4)no3)CC2)cc1 |  |  | RT activity | 15.6 µM
O=C(O)CCN(CCN(CC(=O)O)Cc1cnc2c(O)cccc2c1)CC(=O)O | B-92US026 Primary isolate |  | RT activity | 15 µM
Cc1c(-c2cccc(SCCN(C)C)c2)ncnc1-c1cccc(SCCN(C)C)c1 | LAV-1 |  | RT activity | 6 µM
CN1CCN(c2cc(-c3ccccc3)nc3ccccc23)CC1 | LAV |  | p24 | 34.8 µM
Cc1nc2ccccc2c(-c2ccc(Cl)cc2)c1[C@H](OC(C)(C)C)C(=O)O |  |  |  | 0.287 µM
CN(C)c1ccc(Nc2c3ccc(NC(=O)CCN4CCCC4)cc3nc3cc(NC(=O)CCN4CCCC4)ccc23)cc1 | IIIB |  | p24 / antigen | 28.3 µM
Cc1ccc(C2=CC(c3ccccc3)=C(c3ccccc3)C2)cc1 | 89BZ167 |  | RT activity | >100 µM
CN(C)CCNc1nc(-c2cccs2)cc(-c2cccs2)n1 | LAV |  | RT activity | 0.5 µM
Nc1nccc2c1ncn2[C@@H]1C[C@H](O)[C@@H](O)[C@H]1O | A018 |  | p24 | 2.84 µM